Consider two molecules from patent US20180009859A1, “PHARMACOLOGICAL MODULATORS OF GABAA RECEPTORS AND THEIR USE” (priority 2015, published 2018).

Test [1] deals with GABAA receptors of mouse hippocampal neurons (mouse). Kind of test: cell-based or functional assay.
Test [2] deals with T1, α1β2γ2 GABAA receptor (rat), P62813.
T1 chain 1: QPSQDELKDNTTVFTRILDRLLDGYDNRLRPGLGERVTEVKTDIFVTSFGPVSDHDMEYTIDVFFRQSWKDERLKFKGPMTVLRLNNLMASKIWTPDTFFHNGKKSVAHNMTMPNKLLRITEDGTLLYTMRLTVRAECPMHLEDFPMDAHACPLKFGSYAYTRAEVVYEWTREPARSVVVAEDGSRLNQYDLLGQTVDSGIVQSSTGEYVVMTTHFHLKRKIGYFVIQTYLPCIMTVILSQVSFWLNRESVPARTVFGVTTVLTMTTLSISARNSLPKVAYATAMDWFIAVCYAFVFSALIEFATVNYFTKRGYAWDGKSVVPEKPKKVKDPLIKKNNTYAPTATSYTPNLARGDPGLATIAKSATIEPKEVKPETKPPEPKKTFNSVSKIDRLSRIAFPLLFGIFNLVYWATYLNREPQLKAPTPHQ
T1 chain 2: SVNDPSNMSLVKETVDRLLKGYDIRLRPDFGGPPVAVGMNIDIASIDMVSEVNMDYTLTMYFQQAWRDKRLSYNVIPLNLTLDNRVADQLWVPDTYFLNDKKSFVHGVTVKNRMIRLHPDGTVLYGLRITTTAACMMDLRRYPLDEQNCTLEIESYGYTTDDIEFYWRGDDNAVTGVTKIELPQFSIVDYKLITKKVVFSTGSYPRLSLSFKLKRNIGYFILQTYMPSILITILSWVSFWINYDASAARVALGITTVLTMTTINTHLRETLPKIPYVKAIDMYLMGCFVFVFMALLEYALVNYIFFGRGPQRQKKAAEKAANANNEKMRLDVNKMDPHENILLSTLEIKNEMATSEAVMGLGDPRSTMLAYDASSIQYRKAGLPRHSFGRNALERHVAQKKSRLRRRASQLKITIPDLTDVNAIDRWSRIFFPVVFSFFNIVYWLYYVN
T1 chain 3: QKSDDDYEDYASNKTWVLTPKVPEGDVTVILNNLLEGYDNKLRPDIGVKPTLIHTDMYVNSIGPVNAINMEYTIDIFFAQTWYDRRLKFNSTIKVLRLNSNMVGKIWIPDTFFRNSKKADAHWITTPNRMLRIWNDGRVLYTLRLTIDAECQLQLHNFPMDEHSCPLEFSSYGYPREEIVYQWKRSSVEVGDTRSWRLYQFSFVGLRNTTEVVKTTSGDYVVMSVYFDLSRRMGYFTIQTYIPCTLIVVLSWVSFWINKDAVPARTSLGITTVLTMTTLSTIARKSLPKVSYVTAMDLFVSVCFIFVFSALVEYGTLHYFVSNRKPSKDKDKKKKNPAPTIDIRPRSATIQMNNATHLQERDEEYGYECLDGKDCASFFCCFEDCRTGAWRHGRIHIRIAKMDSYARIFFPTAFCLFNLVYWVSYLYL
Kind of test: cell-based or functional assay.

B1: recombinant MmTX1 (rMmTX1) (peptide)
peptide: LTCKTCPFTTCPNSESCPGGQSICYQRKWEEHRGERIERRCVANCPAFGSHDTSLLCCTRDNCN
modifications: not checked
Regarding B1, in test [1], the Factor of GABAA current increase, 0.1 µM muscimol + 100 nM rMmTX1 was 7.9 fold; the Factor of GABAA current increase, 0.3 µM muscimol + 100 nM rMmTX1 came out at 7.5 fold; the Factor of GABAA current increase, 1.0 µM muscimol + 100 nM rMmTX1 amounted to 1.9 fold; the Factor of GABAA current increase, 3 µM muscimol + 100 nM rMmTX1 stood at 1.4 fold. Further, in test [1], the Factor of GABAA current increase, 30 µM muscimol + 100 nM rMmTX1 is 1 fold; the Factor of GABAA current increase, 50 µM muscimol + 100 nM rMmTX1 is 1 fold; the inward current with 0.3 µM muscimol applied together with 100 nM rMmTX1 came to 439 pA.

B2: synthetic MmTX1 (sMmTX1) (peptide)
peptide: LTCKTCPFTTCPNSESCPGGQSICYQRKWEEHRGERIERRCVANCPAFGSHDTSLLCCTRDNCN
modifications: not checked
Regarding B2, in test [2], the factor of current increase, 0.3 µM muscimol + 100 nM sMmTX1, HEK 293 cells is 2.7 fold; the factor of current increase, 3 µM muscimol + 10 nM sMmTX1, HEK 293 cells was 1.28 fold; the factor of current increase, 3 µM muscimol + 100 nM sMmTX1, HEK 293 cells came to 1.33 fold; the factor of current increase, 3 µM muscimol + 300 nM sMmTX1, HEK 293 cells worked out at 1.6 fold.
